{"source": "paper PMC3441419", "about": "“The Redox-Sensing Regulator Rex Modulates Central Carbon Metabolism, Stress Tolerance Response and Biofilm Formation by Streptococcus mutans”", "molecular_target": "T1, rRex (UniProt Q8DU91)", "T1 sequence (looked up, limits assumed)": "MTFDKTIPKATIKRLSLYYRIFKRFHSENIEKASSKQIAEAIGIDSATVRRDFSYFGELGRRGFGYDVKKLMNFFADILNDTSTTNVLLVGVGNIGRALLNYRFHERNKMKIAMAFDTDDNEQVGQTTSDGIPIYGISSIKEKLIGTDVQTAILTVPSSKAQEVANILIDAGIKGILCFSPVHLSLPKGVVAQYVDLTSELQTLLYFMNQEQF", "experiment": "EMSA", "conditions": "20 mM Tris pH 8.0, 1 mM EDTA, 75 mM KCl, 2 mM DTT, 10% glycerol, 10 min at room temperature (+15 min after NAD+/NADH), 5% native PAGE, recombinant protein, protein details: N-terminal His (pQE30), probe letters rebuilt from the primers and the genome", "note": "Construct, isoform or probe ends are uncertain for at least one entry. The comparison behind a weaker result is the experiment's own reference, which may not be listed here. Protein sequences can lack the tags named with them."}
{"sequence": "AGTCCTTAAGTAAAACCACATCTGTTTTGACGGCTCTCACCAAAAAGAGTCTGAGACAAAAAGATTTCTCAAACTCTTTGATTAGTGACTTTAGTCTGTCTCGCTCCGTAGGTGCGAGACAAATAAACCACCCGCTATGCGGGTGCGCATTGAATGTTATACAAAAAATCTCCAAACGCGATACAATAAAGGTGTTCAAGCCTATTGTAAAGCGAAAGGAGCAAAAAATGGCACAAAAGGCACATAGTTTATCACATACAAAGTGGATATGTTCTATCACCTTGTGTTCACCCCTAAGTATAGACGAAAAATCATCTATAATCAATATCGAAGTAGTTTAGGCGAGATATTCCAACGATTATGCAGTTACAAAGATGTTGAAATTATCGAAGGCCATCTGATGCCAGACC (double strand) [tpn promoter]", "values": [{"measurement": "binding result", "value": "binds"}]}
{"sequence": "CCTTGGTACTTTATTGCTGATAAGAGTGCTTAAAACAAATAGAAATCTCAGAAAATAATCTGAGGTTTTTTAATTTTCAATAATTTATTAGCCCTCACACGATCAAGATTTTCAAGGGGATAAAAATTTGGGAAAAAATTCACAAAAAGACTTGCATTTTTTTGTGAAAAGGGTTACAATGACAAGTGAAGAAAATCACAAGAGTATCTTTCTTCTTAAACTATTTACCAACTATTATTTTTAGGAGGAATTGTTGAATGGCAAAAGAAACAAAAACAGAAGCACTCACTGCTGAAGAAGCAGCTA (double strand) [adhE promoter]", "values": [{"measurement": "binding result", "value": "binds"}, {"measurement": "binding result", "setting": "rRex preloaded with NAD+, desalted", "value": "binds"}, {"measurement": "binding result", "setting": "rRex preloaded with NADH, desalted (binding inhibited)", "value": "binds more weakly"}]}
{"sequence": "TTATCGAAAGTCACTGTACTTCCTCCTTTTTCTATATACTATTGTAAAAAAAGTTTGTGAAAAATGCAACATCTTTTGAAGGGTCTTGTGATAGACATTTCTTATATAGTCTTTAGTTTTTTTTATAACAAATTTGACCACCCGTTAGACGGGTGGTCATAATTATAAGGGGTACTGTTAATTTTGATGGAGTAAAAGTTTTCTTTTGTTTCAAACCATTGATATAAGATTGTTAAAAATTTCTCTCCAATCTCTGTATTAAACTAACGGCTCCAGTATATTAAACACTGTTAGACTTTACTTTGCC (double strand) [rex promoter]", "values": [{"measurement": "binding result", "value": "binds"}]}
{"sequence": "ACAAGCCCATACTGAGTTTGGACATTAAAGCTCAGCAGGGCTATGATTATGATGTCATTATCATCGGCGGCGGTGTTTCAGGTGTGACTCTAGCC (double strand) [gshR promoter]", "values": [{"measurement": "binding result", "setting": "10 mM NADH (complex formation inhibited)", "value": "binds more weakly"}]}
{"sequence": "ATGACAGTTCCTCGCATTTTTAATTTATGTTATAATTATAAGTGAAAAACATCACATTTGAAAAGCCTTACAAATATCTTAAAAAATGACTTTTTATGACTTTTAGATGGGAGGTTTGCTTAGT (double strand) [frdC promoter]", "values": [{"measurement": "binding result", "setting": "10 mM NADH (binding almost abolished)", "value": "binds more weakly"}]}
{"sequence": "CAGCATCCGCACAGTCTTCATATTTAGCTGCATAGATTTTTTTTGGTGAAGTAAAAGCAAGTGCATGACTAAGATCAAGAGCGTCGCCAACGGCTTTTTCAAATAATTGAGGAATTTCAATAATACCAAGTTCTTGAGCAATTCCTTGGTTAACGAGAGCGAAAGCGTAAGATGAACCTACAGCACCATCACCAACAAGGATGACTTTTTTATGTTGTTTAGTTGCAGTCATGTTCTAAACATCTCCTTATAATTTATTAAGTATATATTCTATACATTTTCATTCTAACACTTTTTGTTAAGAAAGTCACTAATATTTACCTTTCTCAGCGGAAAACTATAGTAGAATAGCTGAAAAAGAGCCTTATTTGTGATATAATATAAAAGAGTTTTAGACTAGAAATGAGGCATTTTTTAATGCAAGATAGAAATTTAGTAGATGTCAATTTAACAAGTGAAATGAAGACGAGTTTTATTGACTATGCTATGAGTGTTATTGTTGCTCGGGCTCTTCCAGA (double strand) [ldh promoter]", "values": [{"measurement": "binding result", "value": "binds"}]}
